Experimental data: PubChem BioAssay AID504761 (Drosophila RNAi Screening Center, 2011)

Assay: 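Insect host genes that dengue virus relies on to spread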 (primary screen)
System: D.Mel-2 cells from Drosophila
Knock-down reagent: long dsRNA against Drosophila genes
Treatment: infection with dengue virus type 2; dose and infection time not stated
Measurement: 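Per well on two replicate plates, imaging gave the percent of cells positive for viral envelope protein, ranked by infection, and a nuclear count of cells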
Scale: infection score: higher = more virus-infected cells; cell count: higher = more cells in the well
Rule for the call: 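Very low infection ranking in both replicate wells (chance probability at most 0.065), then a retest showing infection dropped 1.5-fold or more at p below 0.05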
Meaning of the calls: active = confirmed: knock-down lowers infection; inactive = not picked or not confirmed
In all, the deposit lists about 22,000 reagents; shown is an unselected part of those that have a named target and a result. In the full data, 116 (0.52%) are marked active. 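Calls depend on retest data that are not deposited; infection was ranked per plate without normalising between plates; the unit of the infection score is not given.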 The raw values are shown without normalisation. A number with no mark means an inactive call. The numbers tell different reagents against one gene apart. No sequences are given here. Not given: the amount of reagent, the time to read-out.

predicted target | reagent no. | infection score, replicate 1 | infection score, replicate 2 | cell count, replicate 1 | cell count, replicate 2
fzr2 (fizzy-related 2) | 1 | 19.3 | 31.8 | 6086 | 4318
flz (filzig) | 1 | – | 13.6 | 290 | 2807
CG42366 | 1 | 1.97 | 2.64 | 6404 | 6206
CG42366 | 2 | 3.27 | 2.39 | 6455 | 6858
RpL17 (Ribosomal protein L17) | 1 | 2.24 | 3.29 | 2189 | 2098
RpL17 (Ribosomal protein L17) | 2 | 14.5 | 17.1 | 4373 | 4889
HHEX (Hematopoietically expressed homeobox) | 1 | 19.2 | 2.55 | 4336 | 7031
HHEX (Hematopoietically expressed homeobox) | 2 | 4.65 | – | 2278 | 346
CG1971 | 1 | 3.41 | 0.69 | 5870 | 6222
CG1971 | 2 | 4.41 | – | 1631 | 386
CG13796 | 1 | 3.69 | 4.99 | 6394 | 5893
Or33a (Odorant receptor 33a) | 1 | 7.29 | 7.53 | 6271 | 6371
gwl (greatwall) | 1 | 1.33 | 3.08 | 5102 | 5460
CG18094 | 1 | 7.88 | 2.71 | 4934 | 6277
MFS18 (Major Facilitator Superfamily Transporter 18) | 1 | 5.01 | 15.7 | 6231 | 3323
su(f) (suppressor of forked) | 1 | 3.2 | 0.2 | 5274 | 5871
CG5916 | 1 | 19.3 | 14.8 | 6511 | 6426
CG14658 | 1 | 5.23 | 4.52 | 6248 | 7086
ana1 (anastral spindle 1) | 1 | 8.15 | 2.11 | 5802 | 6299
ana1 (anastral spindle 1) | 2 | 4.82 | 0.91 | 6529 | 6681
ana1 (anastral spindle 1) | 3 | 6.04 | 8.77 | 6474 | 5950
VGlut (Vesicular glutamate transporter) | 1 | 5.25 | 14.3 | 6058 | 6088
VGlut (Vesicular glutamate transporter) | 2 | 8.73 | 1.91 | 5932 | 6874
CNBP (CCHC-type zinc finger nucleic acid binding protein) | 1 | 7.76 | 11.6 | 5861 | 5731
CNBP (CCHC-type zinc finger nucleic acid binding protein) | 2 | 0.9 | 10.5 | 5877 | 6078
CNBP (CCHC-type zinc finger nucleic acid binding protein) | 3 | 19.4 | 16 | 3278 | 5907
SmydA-9 (SET and MYND domain containing, arthropod-specific, member 9) | 1 | 5.26 | 5.87 | 6278 | 6945
CG3156 | 1 | 7.31 | 33.7 | 6331 | 6923
CG3156 | 2 | 25.6 | 19.4 | 5771 | 2109
CPT2 (Carnitine palmitoyltransferase 2) | 1 | 7.77 | 9.11 | 6155 | 6436
rut (rutabaga) | 1 | 3.31 | 20.9 | 6562 | 6310
Spt5 | 1 | 15.4 | 10.2 | 4623 | 4215
CG15263 | 1 | 1.88 | 7.65 | 6844 | 6925
CG15263 | 2 | 3.59 | 14.9 | 6654 | 6764
asrij | 1 | 5.63 | 3.41 | 6674 | 6924
CG18636 | 1 | 19.1 | 3.49 | 5799 | 6843
CG18636 | 2 | 22.9 | 29.5 | 6841 | 6649
v (vermilion) | 1 | 5.85 | 4.21 | 5779 | 6413
Porin2 | 1 | 9.83 | 8.51 | 6142 | 6109
glob2 (globin 2) | 1 | 8.65 | 5.61 | 5712 | 6224
LSm1 (Like Sm 1) | 1 | 4.17 | 16.8 | 1390 | 4806
Dd (Dullard) | 1 | 6.05 | 1.75 | 6746 | 6817
CG10920 | 1 | 5.43 | 15.9 | 2008 | 5146
CG13409 | 1 | 1.05 | 2.44 | 6380 | 5904
CG8607 | 1 | 3.45 | 2.65 | 6433 | 6110
Pka-R2 (Protein kinase, cAMP-dependent, regulatory subunit type 2) | 1 | 16.2 | 3.36 | 6601 | 6673
Pka-R2 (Protein kinase, cAMP-dependent, regulatory subunit type 2) | 2 | 4.42 | 17.1 | 906 | 2582
CG31495 | 1 | 8.81 | 13.6 | 6444 | 6101
CG31495 | 2 | 22.1 | 16.9 | 5879 | 4900
pll (pelle) | 1 | 6.73 | 3.48 | 6644 | 6813
pll (pelle) | 2 | 4.48 | 7.4 | 5787 | 5689
CG1143 | 1 | 11 | 5.07 | 4420 | 5225
CG16700 | 1 | 1.75 | 1.63 | 6515 | 6433
Sil1 (Sil1 nucleotide exchange factor) | 1 | 4.55 | 2.46 | 6483 | 6842
CR14499 (retired record) | 1 | 13.3 | 5.63 | 5471 | 6628
Odc2 (Ornithine decarboxylase 2) | 1 | 5.59 | 17.1 | 6364 | 5907
Odc2 (Ornithine decarboxylase 2) | 2 | 3.52 | 3.59 | 6271 | 5847
Epac (Exchange protein directly activated by cAMP) | 1 | 8.79 | 5.08 | 6121 | 6104
Epac (Exchange protein directly activated by cAMP) | 2 | 44 | 13.9 | 6045 | 6616
Epac (Exchange protein directly activated by cAMP) | 3 | 7.51 | 10.8 | 6449 | 3751

7 entries from above, sorted by “infection score, replicate 2”, lowest first.
predicted target | reagent no. | infection score, replicate 1 | infection score, replicate 2 | cell count, replicate 1 | cell count, replicate 2
CG8607 | 1 | 3.45 | 2.65 | 6433 | 6110
Pka-R2 (Protein kinase, cAMP-dependent, regulatory subunit type 2) | 1 | 16.2 | 3.36 | 6601 | 6673
pll (pelle) | 1 | 6.73 | 3.48 | 6644 | 6813
pll (pelle) | 2 | 4.48 | 7.4 | 5787 | 5689
CG31495 | 1 | 8.81 | 13.6 | 6444 | 6101
CG31495 | 2 | 22.1 | 16.9 | 5879 | 4900
Pka-R2 (Protein kinase, cAMP-dependent, regulatory subunit type 2) | 2 | 4.42 | 17.1 | 906 | 2582
